Literature values in patent publication US20230201309A1, “COMPOSITIONS FOR THE TREATMENT OF A RESPIRATORY CONDITION” (VECTURA LIMITED, priority 2020, published 2023).

Test system: SARS-CoV-2 infection
Settings: inhaled nebulised; phase 2 trial

B1: interferon beta-1a: inhaled nebulised interferon beta-1a (SNG001) (protein, UniProt P01574 22-187, looked up)
Interferon beta: MSYNLLGFLQRSSNFQCQKLLWQLNGRLEYCLKDRMNFDIPEEIKQLQQFQKEDAALTIYEMLQNIFAIFRQDSSSTGWNETIVENLLANVYHQINHLKTVLEEKLEKEDFTRGKLMSSLHLKRYYGRILHYLKAKEYSHCAWTIVRVEILRNFYFINRLTGYLRN
odds of improvement vs placebo: greater odds of improvement | recovery from SARS-CoV-2 infection vs placebo: recovered more rapidly
